Measurements reported in article PMC12212627, “Machine Learning-Based Virtual Screening of Antibacterial Agents against Methicillin-Susceptible and Resistant Staphylococcus aureus” (Journal of Chemical Information and Modeling, 2024).

Experiments:
Assay type in all cases: cell-based, Staphylococcus aureus
Settings in all cases: ratio between CC50 (Vero) and MIC
[1] = tested on: clinical strain of MRSA n° 6154; assay: Broth microdilution (CLSI): screening at 100 μM and MIC, MRSA clinical strain 6154
Procedure: (§1) E. coli (ATCC n° […]) – a TEM-1 β-lactamase producing strain, S. aureus (ATCC n° 29213) – herein referred to as MSSA, MRSA (ATCC n° 43300), and two clinical strains of MRSA (n° 5749 and 6154) were used in the biological assays. The antibacterial activity and minimal inhibitory concentration (MIC) of the screened compounds were evaluated with the broth microdilution method in 96-well microplates, according to the Clinical and Laboratory Standards Institute (CLSI) protocol. Initially, compounds were evaluated in a screening assay to identify promising hits. The compounds were dissolved in dimethyl sulfoxide (DMSO) and then diluted in Mueller Hinton broth (MHB; Oxoid, Thermo Scientific, U.K.) to a concentration of 200 μM. After the addition of 100 μL to each well, the same volume of bacterial suspension containing 10^5 CFU/mL was added to each of the previous solutions, resulting in a final compound concentration of 100 μM. A viability control (bacterial suspension only), inhibition controls (MHB containing five times the MIC of penicillin G for MSSA, vancomycin for MRSA strains, and streptomycin for E. coli), a sterility control (medium only), and a vehicle control (DMSO 2% v/v) were included in each assay microplate. After 24 h of incubation at 37 °C, the microplates were visually inspected for inhibition of bacterial growth, and the absorbance at 600 nm of each well was read using a microplate reader spectrophotometer (VersaMax, Molecular Devices, CA). The percentage of growth inhibition was calculated as the percentage of growth reduction compared with the vehicle control. Wells showing no visual bacterial growth (no turbidity) were considered hits. The MIC of the promising compounds in the initial screening were tested as previously described, with a serial dilution of each compound (100–1.56 μM). All conditions were tested in triplicate from at least three independent assays.

[2] = tested on: S. aureus (ATCC n° 29213), MSSA; assay: Broth microdilution (CLSI): screening at 100 μM and MIC, MSSA
Procedure: as §1

[3] = tested on: clinical strain of MRSA n° 5749; assay: Broth microdilution (CLSI): screening at 100 μM and MIC, MRSA clinical strain 5749
Procedure: as §1

MRSA (ATCC n° 43300) = assay: Broth microdilution (CLSI): screening at 100 μM and MIC, MRSA reference strain
Procedure: as §1

| Structure (SMILES) | SI, MRSA (6154) [1] | SI, MSSA (ATCC 29123) [2] | SI, MRSA (5749) [3] | SI, MRSA (ATCC 43300) (MRSA (ATCC n° 43300)) |
| --- | --- | --- | --- | --- |
| C#CCOC1=CC(=O)c2ccccc2C1=O [Compound 3, 2-[(prop-2-yn-1-yl)oxy]-1,4-naphtoquinone] | 0.42 | 0.42 | 0.42 | 0.42 |
| Cc1ccc(OCC(N)COc2ccc(C)cc2)cc1 [Compound 4, 1,3-bis(4-methylphenoxy)propano-2-aminium chloride] | – | 0.38 | – | 0.19 |
| O=C(NCCCOCCCNC(=O)c1ccc(-c2ccc(Br)cc2)o1)c1ccc(-c2ccc(Br)cc2)o1 [Compound 6, N,N′-(oxybis(propane-3,1-diyl))-bis(5-(4-bromophenyl)furan-2-carboxamide)] | 0.43 | 0.87 | 0.43 | 0.43 |
| CC(=O)O[C@@H]1[C@H](OC(C)=O)[C@H](C)O[C@H](n2cc(COC3=CC(=O)c4ccccc4C3=O)nn2)[C@H]1OC(C)=O [Compound 1, 2-[1-(2,3,4-tri-O-acetyl-6-deoxy-β-L-galactopyranosyl)-1,2,3-triazol-4-(methyl)oxy]-1,4-naphtoquinone] | <0.33 | 0.33 | <0.33 | <0.33 |
